Results of unrelated studies side by side (data: NIAID ChemDB).

Common to all: growth or infection tests; organism: Mycobacterium tuberculosis

Lines come from different laboratories, so protocols vary. Inhibition is in % at the dose shown (toxicity tests: loss of growth or viability). MIC bound: limit read from a one-dose screen. Blank or dashed fields: not listed here. MIC50, MIC90 and the like: level of inhibition, or share of isolates inhibited.

smiles,read-out,mutations,method,strain or isolate,dose,result
CC(=O)O[C@H]1C[C@@]2(C)C(=C3CC=C(C)CC[C@@]31C)CC[C@@H]2C(C)C,MIC,-,resazurin,H37Rv,-,100 µg/mL
CO[C@H]1/C=C/O[C@@]2(C)Oc3c(C)c(O)c4c(O)c(c(/C=N/N5CCN(C)CC5)c(O)c4c3C2=O)NC(=O)/C(C)=C\C=C\[C@H](C)[C@H](O)[C@@H](C)[C@@H](O)[C@@H](C)[C@H](OC(C)=O)[C@@H]1C,MIC90,EJMCh4/1 MmpL3 (V285A),visual reading / absorbance,H37Rv,-,0.6 µM
CN(C)CCCN1c2ccccc2S(=O)c2ccc(Cl)cc21.Cl,inhibition,-,BACTEC,H37Rv,12.5 µg/mL,15%
CN(C)C(=O)CC(CSc1ccccc1)Nc1c(C(=O)N/N=C/c2ccc(OC(F)(F)F)cc2)cnc2cccc(C(F)(F)F)c12,MIC,-,resazurin,H37Rv,-,5 µg/mL
C[C@]1(COc2ccc(-c3cc(-c4ccccc4C(F)(F)F)on3)cc2)Cn2cc([N+](=O)[O-])nc2O1,MIC,-,broth dilution / resazurin,H37Rv,-,0.51 µM
CC1Cn2cnc([N+](=O)[O-])c2O1,MIC,-,-,H37Rv,-,>10 µg/mL
CC(C)[C@H]1CC[C@H]2[C@@H]3C=CC4(C)CC[C@@]3(CC[C@]12C(=O)O)CO4,MIC,-,resazurin,CIBIN 99,-,100 µg/mL
CCOC(=O)/C=C/c1ccc(OC)cc1,MIC,-,resazurin,BTB09-001,-,242 µM
CC(C)c1ccc(OCc2cc(-c3ccc(OC[C@@]4(C)Cn5cc([N+](=O)[O-])nc5O4)cc3)no2)cc1,MIC,-,broth dilution / resazurin,ss18b non-replicating phase,-,2.04 µM
CC1(C)C2CC3OB(C[C@@H](CCc4ccccc4)NC(=O)[C@@H](N)CCCCN)O[C@]3(C)C1C2,MIC,-,-,H37Rv,-,≤500 µg/mL
CC(C)(C)OC(=O)NC1(C(=O)O/N=C2\c3ccccc3-c3c2c(N2CCN(c4ccccn4)CC2)nc2ccc(Br)cc32)CCCC1,MIC90,-,resazurin,H37Rv,-,>6.25 µg/mL
C[C@]1(COc2ccc(-c3cc(COc4cccc(Cl)c4)on3)cc2)Cn2cc([N+](=O)[O-])nc2O1,MIC,-,broth dilution / resazurin,H37Rv,-,4.15 µM
CO[C@H]1/C=C/O[C@@]2(C)Oc3c(C)c(O)c4c(O)c(c5c(c4c3C2=O)NC2(CCN(CC(C)C)CC2)N=5)=NC(=O)/C(C)=C\C=C\[C@H](C)[C@H](O)[C@@H](C)[C@@H](O)[C@@H](C)[C@H](OC(C)=O)[C@@H]1C,MIC,-,-,Strain 6 (RIF-resistant),-,5 µg/mL
CC(=O)c1ccccc1Sc1nnc(N2CCN(c3nc(N4CCN(c5ccccc5)CC4)c4ccccc4n3)CC2)o1,MIC,-,agar / visual reading,H37Rv,-,200 µg/mL
CCCCCCCCCCCCCC(=O)O/N=C1\c2ccccc2-c2c1c(-n1ccnc1)nc1ccc(Br)cc21,MIC90,-,resazurin,H37Rv,-,>6.25 µg/mL
CC(C)[C@H]1CC[C@H]2[C@@H]3C=C[C@](C)(O)CC[C@]3(C)CC[C@]12C(=O)O,MIC,-,resazurin,H37Rv,-,100 µg/mL
CC(C)c1[nH]nc(C(N)=O)c1N=NN(C)C,MIC bound,-,BACTEC,H37Rv,-,>12.5 µg/mL
O=C(Cc1csc2nc(-c3ccc(Br)cc3)cn12)NNC(=S)Nc1ccc(Br)cc1,inhibition,-,-,H37Rv,6.25 µg/mL,29%
CSCCC/C=N/NC(=O)c1cnc2cc(F)ccc2c1NC(CSc1ccccc1)CC(=O)N(C)C,MIC,-,resazurin,H37Rv,-,>100 µg/mL
COc1ccccc1Sc1nnc(N2CCN(c3nc(N4CCN(c5ccccc5)CC4)c4ccccc4n3)CC2)o1,inhibition,-,BACTEC / fluorescence,H37Rv,6.25 µg/mL,0%
Cn1cnnc1SCc1cc([N+](=O)[O-])cc([N+](=O)[O-])c1,MIC,-,-,My 331/88,-,>1000 µM
COC(=O)[C@]12CC[C@@]3(COC(C)=O)CC4OOC(C=C4C)[C@H]3[C@@H]1CC[C@@H]2C(C)C,MIC,-,resazurin,H37Rv,-,100 µg/mL
FC(F)(F)c1cc(CSc2ncn[nH]2)cc(C(F)(F)F)c1,MIC,-,-,My 331/88,-,250 µM
CCCCCCCCCCCC(=O)O/N=C1\c2ccccc2-c2c1c(N1CCN(c3ccccn3)CC1)nc1ccc(Br)cc21,MIC90,-,resazurin,H37Rv,-,>6.25 µg/mL
O=C(Cc1csc2nc(-c3ccc(Br)cc3)cn12)N/N=C1\SCC(=O)N1c1ccc(Cl)cc1,inhibition,-,-,H37Rv,6.25 µg/mL,0%
CN(C)C(=O)CC(CSc1ccccc1)Nc1c(C(=O)N/N=C/c2ccc(Br)s2)cnc2cc(F)ccc12,MIC,-,resazurin,H37Rv,-,>100 µg/mL
CC(=O)c1ccccc1NNC(=O)N1CCN(c2nc(N3CCN(c4ccccc4)CC3)c3ccccc3n2)CC1,MIC,-,agar / visual reading,H37Rv,-,6.25 µg/mL
C[n+]1c(-c2ccc(NC(=O)c3ccc(C(=O)Nc4ccc(-c5cn6ccccc6[n+]5C)cc4)cc3)cc2)cn2ccccc21,MIC,-,BACTEC,H37Rv,-,6.25 µg/mL
C[C@@H](B1OC2CC3CC(C3(C)C)[C@@]2(C)O1)[C@@H](Cc1ccccc1)NC(=O)[C@@H]1CCCN1,MIC,-,agar,H37Rv,-,≤500 µg/mL
CCC(CC)=C1OC(=O)C(=O)N1CC,MIC bound,-,BACTEC,H37Rv,-,>12.5 µg/mL
Cc1ccccc1NNC(=O)N1CCN(c2nc(N3CCN(c4ccccc4)CC3)c3ccccc3n2)CC1,inhibition,-,BACTEC / fluorescence,H37Rv,6.25 µg/mL,0%
Cc1nc2[nH][nH]c(=O)c2nc1C,MIC bound,-,BACTEC,H37Rv,-,>12.5 µg/mL
CC(C)CC(NC(=O)OC(C)(C)C)C(=O)O/N=C1\c2ccccc2-c2c1c(N1CCN(c3ccccn3)CC1)nc1ccc(Br)cc21,MIC90,-,resazurin,H37Rv,-,>6.25 µg/mL
Brc1ccc2nc(CCC3CCCCC3)[nH]c2c1,MIC90,6B MmpL3 (V240A),visual reading / absorbance,H37Rv,-,22.8 µM
CNC1C(O)CC(OC2C/C=C(/C)C/C(C)=C\C=C/CCC(C)CNC(=O)/C=C\C=C/C2C)OC1C,inhibition,-,resazurin,H37Rv,6.25 µg/mL,65%
CCCNC(=S)NNC(=O)Cc1csc2nc(-c3ccc(Br)cc3)cn12,inhibition,-,-,H37Rv,6.25 µg/mL,0%
CO[C@H]1/C=C/O[C@@]2(C)Oc3c(C)c(O)c4c(O)c(c5c(c4c3C2=O)NC2(CCN(CC(C)C)CC2)N=5)=NC(=O)/C(C)=C\C=C\[C@H](C)[C@H](O)[C@@H](C)[C@@H](O)[C@@H](C)[C@H](OC(C)=O)[C@@H]1C,MIC,-,-,32 (rifampicin-susceptible),-,≤0.062 µg/mL
C[C@H](N)C(=O)N[C@@H](CB1OC2CC3CC(C3(C)C)[C@@]2(C)O1)Cc1ccccc1,MIC,-,agar,H37Rv,-,≤500 µg/mL
O=[N+]([O-])c1ccccc1CSc1ncn[nH]1,MIC,-,-,My 331/88,-,>1000 µM
CC1Cn2cc([N+](=O)[O-])nc2O1,MIC,-,-,H37Rv,-,5 µg/mL
CN(C)C(=O)CC(CSc1ccccc1)Nc1c(C(=O)N/N=C/c2cc(F)ccc2O)cnc2cccc(C(F)(F)F)c12,MIC,-,resazurin,H37Rv,-,10 µg/mL
Cn1cn[nH]c1=S,MIC,-,-,My 331/88,-,1000 µM
COC1(CO)C(=O)N(C)CC(=O)N1C,MIC,-,-,RMP-R,-,6.3 µg/mL
Fc1cccc(CSc2ncn[nH]2)c1,MIC,-,-,My 331/88,-,250 µM
C[C@@H]1CN(c2c(F)c(N)c3c(=O)c(C(=O)O)cn(C4CC4)c3c2F)C[C@H](C)N1,MIC50,-,-,25 strains,-,0.1 µg/mL
CN(C)C(=O)CC(CSc1ccccc1)Nc1c(C(=O)N/N=C/c2cccnc2)cnc2cc(F)ccc12,MIC,-,resazurin,H37Rv,-,5 µg/mL
NC(=O)c1ccc[n+]([O-])c1,inhibition,-,BACTEC,H37Rv,12.5 µg/mL,11%
CCCCCCCC/C=N/NC(=O)c1cnc2cccc(C(F)(F)F)c2c1NC(CSc1ccccc1)CC(=O)N(C)C,MIC,-,resazurin,H37Rv,-,1.25 µg/mL
CCNC(=S)NNC(=O)Cc1csc2nc(-c3ccc(Br)cc3)cn12,inhibition,-,-,H37Rv,6.25 µg/mL,16%
CC(=O)O/N=C1\c2ccccc2-c2c1c(N1CCN(c3ccccn3)CC1)nc1ccc(Br)cc21,MIC90,-,resazurin,H37Rv,-,>6.25 µg/mL
CC1(C)C2CC3OB(C[C@@H](Cc4ccccc4)NC(=O)[C@@H](N)Cc4ccccc4)O[C@]3(C)C1C2,MIC,-,-,H37Rv,-,≤50 µg/mL
CN[C@@H]1[C@H](O[C@H]2[C@H](O[C@H]3[C@H](O)[C@@H](O)[C@H](N=C(N)N)[C@@H](O)[C@@H]3N=C(N)N)O[C@@H](C)[C@]2(O)C=O)O[C@@H](CO)[C@H](O)[C@H]1O,MIC90,EJMCh6A MmpL3  (V684A),visual reading,H37Rv,-,2 µM
O=C(Cc1csc2nc(-c3ccc(Br)cc3)cn12)N/N=C1\SCC(=O)N1c1ccccc1,MIC,-,-,H37Rv,-,>6.25 µg/mL
Cc1cccc(CSc2ncn[nH]2)c1,MIC,-,-,My 331/88,-,1000 µM
C[C@]1(COc2ccc(-c3cc(-c4cccc(C(F)(F)F)c4)on3)cc2)Cn2cc([N+](=O)[O-])nc2O1,MIC,-,broth dilution / resazurin,H37Rv,-,0.25 µM
CCn1c(O)c(N=NC(=N)SCC(C)C)c2ccccc21,MIC bound,-,BACTEC,H37Rv,-,>12.8 µg/mL
CCCC(=O)O/N=C1\c2ccccc2-c2c1c(N1CCN(c3ccccn3)CC1)nc1ccc(Br)cc21,MIC90,-,resazurin,H37Rv,-,>6.25 µg/mL
Nc1nc(N)nc(-c2ccc([N+](=O)[O-])o2)n1,MIC,-,-,H37Rv,-,6.3 µg/mL
CC(C)[C@H]1CC[C@@H]2[C@]1(C)CC(=O)[C@@]1(C)CC[C@@](C)(O)[C@@H]3C[C@@]231,MIC,-,resazurin,CIBIN 99,-,25 µg/mL
N[C@H](C(=O)O)[C@H]1ON=C(Cl)[C@@H]1O,MIC,-,-,EMB-R,-,12.5 µg/mL
C[C@]1(COc2ccc(-c3cc(-c4ccccc4F)on3)cc2)Cn2cc([N+](=O)[O-])nc2O1,MIC,-,broth dilution / resazurin,H37Rv,-,0.57 µM
Cc1nnc2sc3c(Cl)c4nn5c(C)nnc5sc4c(Cl)c3nn12,MIC bound,-,BACTEC,H37Rv,-,>12.5 µg/mL
NC(=S)c1cccc(CSc2ncn[nH]2)c1,MIC,-,-,My 331/88,-,500 µM
S=C(NCCNC(=S)[S][Sn]([c]1ccccc1)([c]1ccccc1)[c]1ccccc1)[S][Sn]([c]1ccccc1)([c]1ccccc1)[c]1ccccc1,MIC,-,-,ETA-R,-,0.4 µg/mL
C[C@H](N)C(=O)N[C@@H](CB(O)O)Cc1ccccc1,MIC,-,-,H37Rv,-,≤500 µg/mL
O=C(NCCOC(=O)CCCCCCCCC(=O)OCCNC(=O)NC(=O)c1cn(Cc2ccccc2)c(=O)[nH]c1=O)NC(=O)c1cn(Cc2ccccc2)c(=O)[nH]c1=O,inhibition,-,BACTEC,H37Rv,12.5 µg/mL,14%
C[C@@H](B1OC2CC3CC(C3(C)C)[C@@]2(C)O1)[C@@H](Cc1ccccc1)NC(=O)[C@H](Cc1ccccc1)NC(=O)[C@@H](N)CCCCN,MIC,-,agar,H37Rv,-,≤50 µg/mL
NC(CC(=O)O)CC(=O)O,MIC bound,-,BACTEC,H37Rv,-,>12.5 µg/mL
Brc1cccc(CSc2ncn[nH]2)c1,MIC,-,-,My 331/88,-,250 µM
O=S1(=O)NC2CCC3NS(=O)(=O)NC4CCC(N1)N4S(=O)(=O)N23,inhibition,-,BACTEC,H37Rv,12.5 µg/mL,-2%
Cc1nc([N+](=O)[O-])c2n1CC(CCl)O2,MIC,-,-,H37Rv,-,>10 µg/mL
CCCc1c(C(=O)OCCCN(CC)CC)c(C(=O)OCCCN(CC)CC)c(CCC)n1-c1ccccc1,inhibition,-,resazurin,H37Rv,6.25 µg/mL,14%
Clc1ccc(CSc2ncnc3c2cnn3Cc2cccnc2)cc1,MIC,-,-,H37Rv,-,1 µg/mL
Cc1[nH]nc(C(F)(F)F)c1N=NN1CCC(C(N)=O)CC1,inhibition,-,resazurin,H37Rv,6.25 µg/mL,36%
CSCCC/C=N/NC(=O)c1cnc2cccc(C(F)(F)F)c2c1NC(CSc1ccccc1)CC(=O)N(C)C,MIC,-,resazurin,H37Rv,-,10 µg/mL
CO[C@@]12[C@H](COC(N)=O)C3=C(C(=O)C(C)=C(N)C3=O)N1C[C@H]1[C@@H]2N1C,inhibition,-,BACTEC,H37Rv,12.8 µg/mL,99%
CC1(C)C2CC3OB(C[C@@H](Cc4ccccc4)NC(=O)[C@H](Cc4ccccc4)NC(=O)[C@@H](N)Cc4ccccc4)O[C@]3(C)C1C2,MIC,-,-,H37Rv,-,≤50 µg/mL
O=c1oc(=O)c2ccccc2c2ccccc12,MIC bound,-,BACTEC,H37Rv,-,>12.5 µg/mL
O=C(O)c1ccc(NNC(=O)N2CCN(c3nc(N4CCN(c5ccccc5)CC4)c4ccccc4n3)CC2)cc1,MIC,-,agar / visual reading,H37Rv,-,100 µg/mL